Biological target: LuxS of E. coli (Escherichia coli O157:H7, UniProt Q8X902)
Assay: AI-2 bioluminescence assay (V. harveyi BB170 reporter) of AI-2 production
Type: cell-based

| Structure (SMILES) | IC50 |
| --- | --- |
| CC(=O)N1CCc2cc(CNC(=O)c3cc4ccccc4[nH]3)ccc21 | 17.9 µM |
| O=C(CNc1ccc2ccccc2c1)N/N=C/c1cc2c(cc1Br)OCO2 | 23.7 µM |
| O=C(NCc1ccc2c(c1)CCN2C(=O)c1ccccc1)c1cc2ccccc2[nH]1 | 28.7 µM |

Reference: paper PMC10100900, “Virtual Screening and In Vitro Experimental Verification of LuxS Inhibitors for Escherichia coli O157:H7” (Microbiology Spectrum, 2023)
